2 molecules from patent US5409692A, “Glucosyltransferase inhibitors, as well as dental caries prevention methods and anticarious foods using the same” (priority 1990, dated 1995) can be followed below.

The nature of this series: Comparison of sweetness by organoleptic evaluation. Particulars: for Sweetness: relative to sugar (5% solution), 10 panelists, pair testing, room temperature.

`OC[C@H]1O[C@H](OC[C@H]2OC(O)(CO)[C@@H](O)[C@@H]2O)[C@H](O)[C@@H](O)[C@@H]1O` (stereo partly drawn) [Palatinose, palatinose] yielded a Sweetness of 0.4. Further, the “Sweetness (in words)” value (compared with sugar) was “sweetness as low as less than half of sugar”.
Take `OC[C@H]1O[C@@](CO)(O[C@H]2O[C@H](CO)[C@@H](O)[C@H](O)[C@H]2O)[C@@H](O)[C@@H]1O` [Sugar]: the Sweetness is given as 1.0.
